Pooled drug test results. Numbers come from NIAID ChemDB, via PubChem.

All rows: tests in culture

Conditions beyond the fields shown may differ between rows.

Cc1c(N2C[C@@H](N)C3(CC3)C2)c(F)cn2c(=O)c(C(=O)O)cc(C3CC3)c12 ; species: Enterococcus faecium ; strain or isolate: ATCC 8043 ; measure: MIC ; value: 0.02 µg/mL
CC1(C)C(=O)C(C(=O)CC2CCCCC2)=C(O)C(C)(C)C1=O ; species: Enterococcus faecalis ; strain or isolate: Vancomycin-resistant ; measure: MIC ; value: 15 µg/mL
CN(C)[C@@H]1C(=O)C(C(N)=O)=C(O)[C@@]2(O)C(=O)C3=C(O)c4c(O)c(NC(=O)CNc5ccccc5)cc(F)c4C[C@H]3C[C@@H]12 ; species: Enterococcus faecalis ; strain or isolate: 103-29212 ; read by: agar diffusion ; measure: EC50 ; value: 2 µg/mL
CC[C@H](NC)C1CCN(c2c(F)cn3c(=O)c(C(=O)O)cc(C4CC4)c3c2C)C1 ; species: Enterococcus faecium ; strain or isolate: ATCC 8043 ; measure: MIC ; value: 0.2 µg/mL
CCC1(CC)C(=O)C(C(=O)CCc2ccccc2)=C(O)C(CC)(CC)C1=O ; species: Enterococcus faecalis ; strain or isolate: Vancomycin-resistant ; measure: MIC ; value: 31 µg/mL
Cc1c(N2Cc3cccnc3C2)c(F)cn2c(=O)c(C(=O)O)cc(C3CC3)c12 ; species: Enterococcus faecium ; strain or isolate: ATCC 8043 ; measure: MIC ; value: 0.05 µg/mL
CN[C@@H]1CN(c2c(F)cn3c(=O)c(C(=O)O)cc(C4CC4)c3c2C)CC12CC2 ; species: Enterococcus faecium ; strain or isolate: ATCC 8043 ; measure: MIC ; value: 0.2 µg/mL
CSCC[C@H](N)C1CCN(c2c(F)cn3c(=O)c(C(=O)O)cc(C4CC4)c3c2C)C1 ; species: Enterococcus faecium ; strain or isolate: ATCC 8043 ; measure: MIC ; value: 0.01 µg/mL
NC1CCN(c2c(F)cc3c(=O)c(C(=O)O)cn(C4CC4)c3c2Cl)C1 ; species: Enterococcus faecium ; strain or isolate: 10 strains ; measure: MIC50 ; value: 0.25 µg/mL
Cc1c(N2C[C@@H](N)[C@H](C3CC3)C2)c(F)cn2c(=O)c(C(=O)O)cc(C3CC3)c12 ; species: Enterococcus faecium ; strain or isolate: ATCC 8043 ; measure: MIC ; value: 0.05 µg/mL
CCCCCCCCCCCCCCCC(=O)C1=C(O)C(C)(C)C(=O)C(C)(C)C1=O ; species: Enterococcus faecalis ; strain or isolate: Vancomycin-resistant ; measure: MIC ; value: 31 µg/mL
COC[C@H](N)C1CCN(c2c(F)cn3c(=O)c(C(=O)O)cc(C4CC4)c3c2C)C1 ; species: Enterococcus faecium ; strain or isolate: ATCC 8043 ; measure: MIC ; value: 0.005 µg/mL
Cc1c(N2CCC(N)CC2)c(F)cn2c(=O)c(C(=O)O)cc(C3CC3)c12 ; species: Enterococcus faecium ; strain or isolate: ATCC 8043 ; measure: MIC ; value: 0.2 µg/mL
Cc1c(N2CCC3(CCC[C@@H]3N)C2)c(F)cn2c(=O)c(C(=O)O)cc(C3CC3)c12 ; species: Enterococcus faecium ; strain or isolate: ATCC 8043 ; measure: MIC ; value: 0.1 µg/mL
CCC(NC)C1CCN(c2c(F)cn3c(=O)c(C(=O)O)cc(C4CC4)c3c2C)C1 ; species: Enterococcus faecium ; strain or isolate: ATCC 8043 ; measure: MIC ; value: 0.05 µg/mL
Cc1c(N2CCC[C@@H](N)C2)c(F)cn2c(=O)c(C(=O)O)cc(C3CC3)c12 ; species: Enterococcus faecium ; strain or isolate: ATCC 8043 ; measure: MIC ; value: 0.05 µg/mL
CC1(C)C(=O)C(C(=O)Cc2ccccc2)=C(O)C(C)(C)C1=O ; species: Enterococcus faecalis ; strain or isolate: Vancomycin-resistant ; measure: MIC ; value: 63 µg/mL
Cc1c(N2C[C@H](N)C3(CC3)C2)c(F)cn2c(=O)c(C(=O)O)cc(C3CC3)c12 ; species: Enterococcus faecium ; strain or isolate: ATCC 8043 ; measure: MIC ; value: 0.05 µg/mL
CC[C@H](N)C1CCN(c2c(F)cn3c(=O)c(C(=O)O)cc(C4CC4)c3c2C)C1 ; species: Enterococcus faecium ; strain or isolate: ATCC 8043 ; measure: MIC ; value: 0.01 µg/mL
Cc1c(N2CCC(C(C)N)C2)c(F)cn2c(=O)c(C(=O)O)cc(C3CC3)c12 ; species: Enterococcus faecium ; strain or isolate: ATCC 8043 ; measure: MIC ; value: 0.02 µg/mL
CCCCCCCCCCCC1=C(O)C(C)(C)C(=O)C(C)(CC=C(C)C)C1=O ; species: Enterococcus faecalis ; strain or isolate: Vancomycin-resistant ; measure: MIC ; value: 31 µg/mL

MIC50, MIC90 and the like: level of inhibition, or share of isolates inhibited. ECn: concentration that inhibits the pathogen or its effect by n%.